In the assay the target is variant human α7V274T nicotinic acetylcholine receptor (nAChR) (human, UniProt P36544 26-502). The experiment in a line: radioligand binding to transfected HEK-293 cells.

B1: [^125I]α-Bungarotoxin (ligand)
chain: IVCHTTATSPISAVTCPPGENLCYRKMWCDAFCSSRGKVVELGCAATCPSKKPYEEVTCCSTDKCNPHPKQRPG
For B1, the binding result is reported as “binds”.

Values taken from patent US6683157B2, “Variant human α7 acetylcholine receptor subunit, and methods of production and use thereof” (priority 1996, dated 2004).
